Columns and labels:
[1] = Inhibition of recombinant influenza C virus C/Cal/78 GFP-tagged 9-SOAE expressed in Sf9 cells assessed as inhibition of hydrolysis of pNPA at 0.5 mM
How it was run: (§1)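 EGFP-fused haemagglutinin-esterase was made in serum-free Sf9 cultures via recombinant baculovirus and recovered from supernatant by ultracentrifugation (1.5 h, 4 °C). It was preincubated with sialoside for 30 min at room temperature. pNPA (10 µl of 100 mM acetonitrile stock) was added in PBS pH 7.4 to 1 ml, and A400 was followed. Read-out was % inhibition of pNPA hydrolysis.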

[2] = Inhibition of Influenza C virus C/JJ/50 9-SOAE expressed in Sf9 cells assessed as inhibition of hydrolysis of pNPA at 0.5 mM
[3] = Inhibition of Bovine coronavirus 9-SOAE expressed in Sf9 cells assessed as inhibition of hydrolysis of pNPA at 2 mM
[4] = Inhibition of recombinant influenza C virus C/Cal/78 GFP-tagged 9-SOAE expressed in Sf9 cells assessed as inhibition of hydrolysis of pNPA at 1 mM; how it was run: as §1
[5] = Inhibition of Bovine coronavirus 9-SOAE expressed in Sf9 cells assessed as inhibition of hydrolysis of pNPA at 0.5 mM
[6] = Inhibition of Bovine coronavirus […] assessed as inhibition of hydrolysis of pNPA at 1 mM; details: Sf9
[7] = Inhibition of recombinant influenza C virus C/Cal/78 GFP-tagged 9-SOAE expressed in Sf9 cells assessed as inhibition of hydrolysis of pNPA at 2 mM; how it was run: as §1
[8] = Inhibition of Influenza C virus C/JJ/50 9-SOAE expressed in Sf9 cells assessed as inhibition of hydrolysis of pNPA at 1 mM
[9] = Inhibition of SDAV GFP-tagged 9-SOAE expressed in Sf9 cells assessed as inhibition of hydrolysis of pNPA at 5 mM; details: Rat sialodacryoadenitis coronavirus; how it was run: as §1
[10] = Inhibition of SDAV GFP-tagged 9-SOAE expressed in Sf9 cells assessed as inhibition of hydrolysis of pNPA at 0.5 mM; details: Rat sialodacryoadenitis coronavirus; how it was run: as §1
[11] = Inhibition of SDAV GFP-tagged 9-SOAE expressed in Sf9 cells assessed as inhibition of hydrolysis of pNPA at 0.1 mM; details: Rat sialodacryoadenitis coronavirus; how it was run: as §1
[12] = Inhibition of SDAV GFP-tagged 9-SOAE expressed in Sf9 cells assessed as inhibition of hydrolysis of pNPA at 1 mM; details: Rat sialodacryoadenitis coronavirus; how it was run: as §1
[13] = Inhibition of MHV S 4-SOAE expressed in Sf9 cells assessed as inhibition of hydrolysis of pNPA at 0.1 mM; details: Murine coronavirus
[14] = Inhibition of MHV S 4-SOAE expressed in Sf9 cells assessed as inhibition of hydrolysis of pNPA at 1 mM; details: Murine coronavirus
[15] = Inhibition of MHV S 4-SOAE expressed in Sf9 cells assessed as inhibition of hydrolysis of pNPA at 0.5 mM; details: Murine coronavirus
[16] = Inhibition of MHV S 4-SOAE expressed in Sf9 cells assessed as inhibition of hydrolysis of pNPA at 5 mM; details: Murine coronavirus

| SMILES | inhibition [1] [%] | inhibition [2] [%] | inhibition [3] [%] | inhibition [4] [%] | inhibition [5] [%] | inhibition [6] [%] | inhibition [7] [%] | inhibition [8] [%] | inhibition [9] [%] | inhibition [10] [%] | inhibition [11] [%] | inhibition [12] [%] | inhibition [13] [%] | inhibition [14] [%] | inhibition [15] [%] | inhibition [16] [%] |
| --- | --- | --- | --- | --- | --- | --- | --- | --- | --- | --- | --- | --- | --- | --- | --- | --- |
| C=CCO[C@]1(C(=O)O)C[C@H](O)[C@@H](NC(C)=O)[C@H]([C@H](O)[C@H](O)COP(C)(=O)O)O1 | 1.06 | < 0 | < 0 | 6.08 | 9.78 | 2.7 | 7.91 | 3.85 | – | – | – | – | – | – | – | – |
| C=CCO[C@]1(C(=O)O)C[C@H](OP(C)(=O)O)[C@@H](NC(C)=O)[C@H]([C@H](O)[C@H](O)CO)O1 | – | – | – | – | – | – | – | – | 11 | 2.89 | 8.3 | 0.65 | 5 | 11.9 | 2.36 | 7.81 |
